Reference: patent US20230331823A1

Biological target: SARS-CoV-1 Spike (Urbani) on pseudovirions (SARS-CoV-1), P59594
Assay: cell-based or functional assay

B1: ShAb01-Foldon (ShAb01 VNAR-KESlinker-Foldon-3c-His8-Strep) (protein)
chain: ARVDQTPRSVTKETGESLTINCVLRDSNCALSSTHWYRKKSGSTNEERILQGRRYVETVNSGSKSFSLRINDLRVEDSGTYRCKVYWGNSWQDKFCPGLGSYEYGDGTAVTVNKESGSVSSEQLAQFRSGDGYIPEAPRDGQAYVRKDGEWVLLSTFLGRSLEVLFQGPGHHHHHHHHSAWSHPQFEK
For B1, the pseudovirus neutralization IC50 was 0.404 µg/mL and the pseudovirus neutralization IC80 was 1.91 µg/mL.

B2: ShAb02-Foldon (ShAb02 VNAR-KESlinker-Foldon-3c-His8-Strep) (protein)
chain: ARVDQTPQTITKETGESLTINCVLRDSNCALASTDWYRKKSGSTNEESISKGGRYVETVNSGSKSFSLRINDLTVEDSGTYRCNAWDSWETRQLKCDYDVYGGGTVVTVNKESGSVSSEQLAQFRSGDGYIPEAPRDGQAYVRKDGEWVLLSTFLGRSLEVLFQGPGHHHHHHHHSAWSHPQFEK
For B2, the pseudovirus neutralization IC50 was greater than 5 µg/mL and the pseudovirus neutralization IC80 was greater than 5 µg/mL.
